Pooled drug test results. Numbers come from NIAID ChemDB, via PubChem.

Shared fields: tests in culture; agent: Candida krusei

Blank or dashed fields: not listed here. ECn: concentration that inhibits the pathogen or its effect by n%. MIC50, MIC90 and the like: level of inhibition, or share of isolates inhibited. Rows are shuffled and stem from different studies.

| compound | setting | strain | read by | measure | value |
|---|---|---|---|---|---|
| CN(CC(=O)Nc1ccc(OC(F)(F)F)cc1)CC(O)(Cn1cncn1)c1ccc(F)cc1F |  |  |  | MIC80 | 4 µg/mL |
| CC(C)NS(=O)(=O)c1ccc(CN(C)CC(O)(Cn2cncn2)c2ccc(F)cc2F)cc1 |  | 506 | resazurin | MIC | 5.7 µg/mL |
| C[C@@H](N1CCN(Cc2cn(Cc3ccc(Cl)cc3Cl)c3cc(Cl)ccc23)CC1)[C@](O)(Cn1cncn1)c1ccc(F)cc1F |  | ATCC 6258 | resazurin | MIC80 | 2 µg/mL |
| COc1ccc(C(c2ccc(OC)cc2)n2cncn2)cc1 |  |  | agar | MIC90 | >256 µg/mL |
| Cc1ccc(C2=C(c3ccc(OCC(O)(Cn4cncn4)c4ccc(F)cc4F)cc3)C(=O)OC2)cc1 |  | ATCC 6258 | broth dilution | MIC50 | 4 µg/mL |
| C[C@@H]1CC(=O)N(c2ccc(F)cc2F)C1=O |  | CCC 117-2000 | broth dilution / turbidity | MIC | 31.3 µg/mL |
| C=CCc1ccc(Cn2cc(CN3CCN([C@H](C)[C@](O)(Cn4cncn4)c4ccc(F)cc4F)CC3)c3cccc(F)c32)cc1 |  | ATCC 6258 | resazurin | MIC80 | >128 µg/mL |
| CCCn1cc[n+](COCCCCCOC[n+]2ccn(CCC)c2)c1 |  | ATCC 6258 | agar diffusion | MIC100 | 2966 µM |
| Cc1ccc(NC(=O)CN(C)CC(O)(Cn2cncn2)c2ccc(F)cc2F)cc1 |  |  |  | MIC80 | 64 µg/mL |
| O/N=C/c1ccc[n+](Cc2cc(C[n+]3cccc(/C=N/O)c3)on2)c1.[Br-].[Br-] |  |  | broth dilution | EC50 | >20 µg/mL |
| CC1CC(=O)N(CCc2ccccc2)C1=O |  | CCC 117-2000 | broth dilution / turbidity | MIC | 125 µg/mL |
| CN(CC(=O)Nc1ccccc1)CC(O)(Cn1cncn1)c1ccc(F)cc1F |  |  |  | MIC80 | 16 µg/mL |
| C[C@H]1[C@H](O)[C@@H](C)/C=C/C=C/C=C/C=C/C=C/C=C/C=C/[C@H](O[C@@H]2O[C@H](C)[C@@H](O)[C@H](N)[C@@H]2O)C[C@@H]2O[C@](O)(C[C@@H](O)C[C@@H](O)CC[C@H](O)[C@@H](O)C[C@@H](O)CC(=O)O[C@H]1C)C[C@H](O)[C@H]2C(=O)O |  | CCC 117 | broth dilution / absorbance | MIC100 | 0.39 µg/mL |
| CC1CC(=O)N(c2ccccc2)C1=O |  | CCC 117-2000 | broth dilution / turbidity | MIC | 125 µg/mL |
| O/N=C/c1cc[n+](Cc2cc(C[n+]3ccc(/C=N/O)cc3)on2)cc1.[Br-].[Br-] |  |  | broth dilution | EC50 | >20 µg/mL |
| Clc1ccccc1C(c1ccccc1)(c1ccccc1)n1ccnc1 | 24 h | Clinical isolates |  | MIC | 4 µg/mL |
| CC(C)CC(O)C(=O)O |  | D 206 B | broth dilution | EC50 | 36000 µg/mL |
| C[C@@H](N1CCN(Cc2c[nH]c3ccccc23)CC1)[C@](O)(Cn1cncn1)c1ccc(F)cc1F |  | ATCC 6258 | resazurin | MIC80 | 16 µg/mL |
| ON=Cc1ccc[n+](Cc2csc3ccccc23)c1.[Cl-] |  |  | broth dilution | EC50 | >20 µg/mL |
| CCn1cc[n+](COCCCCCCOC[n+]2ccn(CC)c2)c1 |  | ATCC 6258 | agar diffusion | MIC100 | 105 µM |
| C[C@@H](N1CCN(Cc2cn(Cc3ccc(Cl)cc3)c3c(Cl)cccc23)CC1)[C@](O)(Cn1cncn1)c1ccc(F)cc1F |  | ATCC 6258 | resazurin | MIC80 | 1 µg/mL |
| CN(CC(=O)Nc1ccccc1[N+](=O)[O-])CC(O)(Cn1cncn1)c1ccc(F)cc1F |  |  |  | MIC80 | 4 µg/mL |
| CC(C)C[C@H](N)C(=O)O |  | ATCC 6258 | broth dilution | MFC100 | >72000 µg/mL |
| NC(=O)c1cc[n+](Cc2ccc(C[n+]3ccc(C(N)=O)cc3)o2)cc1.[Br-].[Br-] |  |  | broth dilution | EC50 | >20 µg/mL |
| COc1cc(C2=C(c3ccc(F)cc3F)COC2=O)ccc1OCC(O)(Cn1cncn1)c1ccc(F)cc1F |  | ATCC 6258 | broth dilution | MIC50 | 8 µg/mL |
| CN(Cc1ccc(S(=O)(=O)NC(C)(C)C)cc1)CC(O)(Cn1cncn1)c1ccc(F)cc1F |  | 506 | resazurin | MIC | 2.2 µg/mL |
| Clc1ccc(C(c2ccccc2)n2cnc3ccccc32)cc1 |  |  | agar | MIC90 | >256 µg/mL |
| Cc1cc(C[n+]2cccc(C=NO)c2)on1.[Br-] |  |  | broth dilution | EC50 | >20 µg/mL |
| C[C@@H]1CC(=O)N(c2ccc(F)cc2)C1=O |  | CCC 117-2000 | broth dilution / turbidity | MIC | 31.3 µg/mL |
| CCCCCCCCCCCCCCn1cc[n+](COCCCCCOC[n+]2ccn(CCCCCCCCCCCCCC)c2)c1 |  | ATCC 6258 | agar diffusion | MIC100 | 3 µM |
| COc1ccc(C2=C(c3ccc(OCC(O)(Cn4cncn4)c4ccc(F)cc4F)cc3)C(=O)OC2)cc1 |  | ATCC 6258 | broth dilution | MIC50 | 8 µg/mL |
| CC1C(=O)N(CCCCc2ccccc2)C(=O)C1C |  | CCC 117-2000 | broth dilution / turbidity | MIC | 62.5 µg/mL |
| Cc1ccc(-c2c3c(N)c4c(nc3nc3c2c(C)nn3-c2ccccc2)CCCCC4)cc1 |  | CCC 117 | broth dilution / absorbance | MIC80 | 62.5 µg/mL |
| C[C@@H](N1CCN(Cc2cn(Cc3ccc(F)cc3F)c3c(Cl)cccc23)CC1)[C@](O)(Cn1cncn1)c1ccc(F)cc1F |  | ATCC 6258 | resazurin | MIC80 | 0.5 µg/mL |
| CCOc1ccc2nc3cc(N=C4NC(=O)/C(=C\C=C\c5ccc([N+](=O)[O-])o5)S4)ccc3c(N)c2c1 |  |  | broth dilution | MFC | >1000 µg/mL |
| C[C@@H](N1CCN(Cc2cn(Cc3ccc(Cl)cc3Cl)c3c(F)cccc23)CC1)[C@](O)(Cn1cncn1)c1ccc(F)cc1F |  | ATCC 6258 | resazurin | MIC80 | 1 µg/mL |
| Cc1ccc(-c2c3c(N)c4c(nc3nc3c2c(C)nn3-c2ccccc2)CCCC4)cc1 |  | CCC 117 | broth dilution / absorbance | MIC50 | 7.8 µg/mL |
| CCCNS(=O)(=O)c1ccc(CN(C)CC(O)(Cn2cncn2)c2ccc(F)cc2F)cc1 |  | 506 | resazurin | MIC | 12.6 µg/mL |
| C=CCn1cc(CN2CCN([C@H](C)[C@](O)(Cn3cncn3)c3ccc(F)cc3F)CC2)c2ccc(Cl)cc21 |  | ATCC 6258 | resazurin | MIC80 | 0.5 µg/mL |
| C[n+]1ccn(COCCCCOCn2cc[n+](C)c2)c1 |  | ATCC 6258 | agar diffusion | MIC100 | 114 µM |
| CN(Cc1ccc(NS(=O)(=O)c2ccccc2)cc1)CC(O)(Cn1cncn1)c1ccc(F)cc1F |  | 506 | resazurin | MIC | 10.6 µg/mL |
| C[C@@H](N1CCN(Cc2cn(Cc3ccc(Cl)cc3Cl)c3ccc(C#N)cc23)CC1)[C@](O)(Cn1cncn1)c1ccc(F)cc1F |  | ATCC 6258 | resazurin | MIC80 | 0.5 µg/mL |
| CC(C)c1ccc(NS(=O)(=O)c2ccc(CN(C)CC(O)(Cn3cncn3)c3ccc(F)cc3F)cc2)cc1 |  | 506 | resazurin | MIC | 1.8 µg/mL |
| O=C(c1ccccc1)C(c1ccccc1)n1nnc2ccccc21 |  |  | agar | MIC90 | >256 µg/mL |
| Cc1ccc(-c2c3c(N)c4c(nc3nc3c2c(C)nn3-c2ccccc2)CCC4)cc1 |  | CCC 117 | broth dilution / absorbance | MIC80 | 125 µg/mL |
| CN(CC(=O)Nc1ccc(Cl)cc1)CC(O)(Cn1cncn1)c1ccc(F)cc1F |  |  |  | MIC80 | 4 µg/mL |
| c1ccc(C(c2ccccc2)n2ccnc2)cc1 |  |  | agar | MIC90 | 0.5 µg/mL |

Again, the opening 3 rows:

compound	setting	strain	read by	measure	value
CN(CC(=O)Nc1ccc(OC(F)(F)F)cc1)CC(O)(Cn1cncn1)c1ccc(F)cc1F				MIC80	4 µg/mL
CC(C)NS(=O)(=O)c1ccc(CN(C)CC(O)(Cn2cncn2)c2ccc(F)cc2F)cc1		506	resazurin	MIC	5.7 µg/mL
C[C@@H](N1CCN(Cc2cn(Cc3ccc(Cl)cc3Cl)c3cc(Cl)ccc23)CC1)[C@](O)(Cn1cncn1)c1ccc(F)cc1F		ATCC 6258	resazurin	MIC80	2 µg/mL